Measured values from several laboratories, pooled; numbers as filed in NIAID ChemDB.

All rows: growth or infection tests; organism: Mycobacterium tuberculosis

Percent inhibition refers to the dose given; in toxicity tests it is the harm to the cells. Conditions beyond the fields shown may differ between rows. ECn is the concentration giving n% inhibition of infection, replication or growth. An empty or dashed field is not shown. MIC bound comes from a single tested concentration.

{"structure": "COc1ccc(/C=C/C(=O)c2ccc(OC)cc2O)cc1", "strain": "H37Rv", "measure": "EC50", "value": ">12.5 µg/mL"}
{"structure": "CCOC(=O)c1c(N)oc(=O)c2c1-c1ccccc1C2=O", "strain": "H37Rv", "method": "BACTEC", "measure": "MIC bound", "value": ">12.5 µg/mL"}
{"structure": "CCCCCCC(C)CCC(=O)O", "strain": "H37Rv", "measure": "MIC", "value": ">100 µg/mL"}
{"structure": "CCOC(=O)Nc1cc(Cl)c2nc(-c3cc(OC)c(OC)c(OC)c3)c(-c3cc(OC)c(OC)c(OC)c3)nc2n1", "strain": "H37Rv", "measure": "EC50", "value": ">12.5 µg/mL"}
{"structure": "CC(C)N=c1cc2n(-c3ccc(Cl)cc3)c3ccccc3nc-2cc1Nc1ccc(Cl)cc1", "strain": "MDR10", "method": "broth dilution / resazurin", "measure": "MIC", "value": "0.25 µg/mL"}
{"structure": "O=C(CNN1CCOCC1)Nc1ccc(S(=O)(=O)c2ccc(NC(=O)CNN3CCOCC3)cc2)cc1", "strain": "H37Rv", "tested at": "6.25 µg/mL", "method": "resazurin", "measure": "inhibition", "value": "45%"}
{"structure": "CCCCCCCCCCCNCCNC1CCc2ccccc21", "measure": "MIC", "value": "25 µM"}
{"structure": "COC1=NCN=C2SC=C(N)N=C12.Cl", "strain": "H37Rv", "tested at": "12.5 µg/mL", "method": "BACTEC", "measure": "inhibition", "value": "24%"}
{"structure": "CC(C)=CCC/C(C)=C/CNCCNCCC(c1ccccc1)c1ccccc1", "measure": "MIC", "value": "50 µM"}
{"structure": "CCOC(=O)Nc1cc(N=[N+]=[N-])c2n[nH]nc2n1", "strain": "H37Rv", "tested at": "12.5 µg/mL", "measure": "inhibition", "value": "0%"}
{"structure": "CC(CNC1CCCCCCC1)NCC12CC3CC(CC(C3)C1)C2", "measure": "MIC", "value": "25 µM"}
{"structure": "C[C@@H]1[C@@H](NCCNCCCCc2ccccc2)C[C@H]2C[C@@H]1C2(C)C", "measure": "MIC", "value": "50 µM"}
{"structure": "Nc1ccc2oc3cccnc3c2c1", "strain": "H37Rv", "tested at": "12.5 µg/mL", "method": "BACTEC", "measure": "inhibition", "value": "11%"}
{"structure": "CCOC(=O)Nc1cc2c(c(N)n1)N=C(c1ccccc1)C(C)O2", "strain": "H37Rv", "measure": "EC50", "value": "<12.5 µg/mL"}
{"structure": "CCN(CC)CCO", "strain": "H37Rv", "measure": "MIC", "value": ">100 µg/mL"}
{"structure": "CCOC(=O)Nc1cc(NCc2ccc(S(N)(=O)=O)cc2)c([N+](=O)[O-])c(N)n1", "strain": "H37Rv", "measure": "EC50", "value": ">12.5 µg/mL"}
{"structure": "CO[C@H]1/C=C/O[C@@]2(C)Oc3c(C)c(O)c4c(O)c(c(/C=N/N5CCN(C/C=C/c6ccccc6)CC5)c(O)c4c3C2=O)NC(=O)/C(C)=C\\C=C\\[C@H](C)[C@H](O)[C@@H](C)[C@@H](O)[C@@H](C)[C@H](OC(C)=O)[C@@H]1C", "strain": "2983 (rifampin-sensitive)", "measure": "MIC", "value": "0.05 µg/mL"}
{"structure": "CN(C)c1ccc(N=Nc2ccc(C(=O)[O-])cc2)cc1.[Na+]", "strain": "H37Rv", "measure": "MIC", "value": ">100 µg/mL"}
{"structure": "FC(F)(F)Oc1ccc(CNCCNC2C3CC4CC(C3)CC2C4)cc1", "measure": "MIC", "value": "12.5 µM"}
{"structure": "Cc1c(Cl)ccc2c(C(=O)NN)cc(-c3ccc(Cl)cc3)nc12", "strain": "H37Rv", "method": "BACTEC", "measure": "MIC bound", "value": "≤12.5 µg/mL"}
{"structure": "CCN(CC)CCCNc1cc(-c2ccc(Cl)cc2)nc2cc(Cl)ccc12", "strain": "H37Rv", "measure": "MIC", "value": "12.5 µg/mL"}
{"structure": "CC(C)c1ccc2c(c1)CC[C@H]1[C@](C)(CNCCNCC(C)c3ccccc3)CCC[C@]21C", "measure": "MIC", "value": "12.5 µM"}
{"structure": "O=C(O)C(c1ccccc1)c1ccccc1", "strain": "H37Rv", "measure": "MIC", "value": "100 µg/mL"}
{"structure": "[O-][n+]1c2ccccc2nc2ccccc21", "strain": "H37Rv", "method": "BACTEC", "measure": "MIC bound", "value": "≤12.5 µg/mL"}
{"structure": "c1ccc(C(CNCCNC23CC4CC(CC(C4)C2)C3)c2ccccc2)cc1", "measure": "MIC", "value": "37.5 µM"}
{"structure": "Cn1ncc(=O)c(Cl)c1Cl", "strain": "H37Rv", "tested at": "6.25 µg/mL", "method": "BACTEC", "measure": "inhibition", "value": "0%"}
{"structure": "Cc1cc(OCC(=O)O)cc(C)c1Cl", "strain": "H37Rv", "measure": "MIC", "value": ">100 µg/mL"}
{"structure": "CCCCCC(C)NCCNCCc1ccc(Cl)cc1Cl", "measure": "MIC", "value": "25 µM"}
{"structure": "O=C1OCC2(CO)SC(c3ccccc3)NC12", "strain": "H37Rv", "method": "BACTEC", "measure": "MIC bound", "value": ">12.5 µg/mL"}
{"structure": "CCOc1ccccc1CNCCNC12CC3CC(CC(C3)C1)C2", "measure": "MIC", "value": "25 µM"}
{"structure": "NC[C@H]1O[C@H](O[C@H]2[C@H](O)[C@@H](O[C@H]3O[C@H](CO)[C@@H](O)[C@H](N)[C@H]3O)[C@H](N)C[C@@H]2N)[C@H](O)[C@@H](O)[C@@H]1O", "strain": "H37Rv", "measure": "MIC", "value": ">128 µg/mL"}
{"structure": "NC1CCC(C(=O)O)CC1", "strain": "H37Rv", "measure": "MIC", "value": ">100 µg/mL"}
{"structure": "CCCCCCCCCCCNCCN[C@@H](C)C1CCCCC1", "measure": "MIC", "value": "25 µM"}
{"structure": "CCOc1ccc2nc3cc(N=Nc4ccc(N)nc4N)ccc3c(N)c2c1", "strain": "H37Rv", "tested at": "12.5 µg/mL", "method": "BACTEC", "measure": "inhibition", "value": "60%"}
{"structure": "CCCCCCCCCCCNCCNCc1ccccc1", "measure": "MIC", "value": "25 µM"}
{"structure": "O=[N+]([O-])c1ccc(S(=O)(=O)c2cccc(Cl)c2)cc1", "strain": "H37Rv", "measure": "MIC", "value": ">100 µg/mL"}
{"structure": "c1ccc(CCCCNCCNCCC(c2ccccc2)c2ccccc2)cc1", "measure": "MIC", "value": "12.5 µM"}
{"structure": "CC(C)[C@H](NC(=O)OC(C)(C)C)C(=O)N[C@@H](C)C(=O)N1CCC[C@H]1C(=O)O", "strain": "H37Rv", "tested at": "6.25 µg/mL", "method": "resazurin", "measure": "inhibition", "value": "11%"}
{"structure": "CCOC(=O)C1C(OC(C)=O)C(C(=O)OCC)C(C)N(C(C)=O)C1C", "strain": "H37Rv", "measure": "MIC", "value": "25 µg/mL"}
{"structure": "Cc1cc2c(cc1S(=O)(=O)O)C1C(C3C2C2(Cl)C(Cl)=C(Cl)C3(Cl)C2(Cl)Cl)C2(Cl)C(Cl)C(Cl)C1(Cl)CCC2(Cl)Cl", "strain": "H37Rv", "method": "resazurin", "measure": "MIC bound", "value": ">6.25 µg/mL"}
{"structure": "COc1ccc2[nH]c(-c3ccccc3)cc(=O)c2c1", "strain": "H37Rv", "measure": "MIC", "value": ">100 µg/mL"}
{"structure": "c1ccc([C@H]2C[C@@H]2NCCNC23CC4CC(CC(C4)C2)C3)cc1", "measure": "MIC", "value": "25 µM"}
{"structure": "CC(=O)O[C@H]1C(=O)[C@]2(C)[C@@H](OC(C)=O)C[C@H]3OC[C@@]3(OC(C)=O)[C@H]2[C@H](OC(=O)c2ccccc2)[C@]2(O)C[C@H](OC(=O)[C@H](OC(C)=O)[C@@H](NC(=O)c3ccccc3)c3ccccc3)C(C)=C1C2(C)C", "strain": "EMB-R", "measure": "MIC", "value": ">12.5 µg/mL"}
{"structure": "Oc1ccccc1CNCCNCc1ccccc1O", "strain": "H37Rv", "measure": "MIC", "value": ">100 µg/mL"}
{"structure": "CC(CNC[C@@H]1CC[C@H]2C[C@@H]1C2(C)C)NCC12CC3CC(CC(C3)C1)C2", "measure": "MIC", "value": "6.25 µM"}
{"structure": "Nc1ccc2c(c1)N(C(=O)c1cc3cc(NC(=O)c4cc5ccccc5o4)ccc3[nH]1)CC2CCl", "strain": "H37Rv", "tested at": "6.25 µg/mL", "method": "BACTEC", "measure": "inhibition", "value": "98%"}
{"structure": "CCCCCCCCCCCCCCSC(=N)CCCCCCCCCCCCC.Cl", "strain": "H37Rv", "measure": "MIC", "value": ">100 µg/mL"}
{"structure": "O=C1C=C(Nc2ccccc2)c2ccccc2C1=O", "strain": "H37Rv", "tested at": "6.25 µg/mL", "method": "resazurin", "measure": "inhibition", "value": "98%"}
{"structure": "CCCCCCCCCCCNCCNCc1ccccc1OCC", "measure": "MIC", "value": "25 µM"}
{"structure": "Oc1ccc(CCNCCNCc2ccco2)cc1", "measure": "MIC", "value": "50 µM"}
{"structure": "N=C(N)Sc1cc(O)c(O)c2ccccc12", "strain": "H37Rv", "method": "resazurin", "measure": "MIC bound", "value": ">6.25 µg/mL"}
{"structure": "CCCCC(CC)CN1CN(CC(CC)CCCC)CC(C)(NCCNCCCc2ccccc2)C1", "measure": "MIC", "value": "25 µM"}
{"structure": "Cl.NC(CCc1ccccc1)c1ccccc1", "strain": "H37Rv", "measure": "MIC", "value": "125 µg/mL"}
{"structure": "Nc1ccccc1/C=C/C(=O)c1cc(Br)ccc1O", "strain": "H37Rv", "measure": "EC50", "value": ">12.5 µg/mL"}
{"structure": "CC(=O)C(CCCn1c(=O)c2c(ncn2C)n(C)c1=O)CCCn1c(=O)c2c(ncn2C)n(C)c1=O", "strain": "H37Rv", "tested at": "12.5 µg/mL", "method": "BACTEC", "measure": "inhibition", "value": "0%"}
{"structure": "Cc1ccc(Nc2ccc(N)c3c2C(=O)c2ccccc2C3=O)cc1", "strain": "H37Rv", "measure": "MIC", "value": ">100 µg/mL"}
{"structure": "O=c1[nH][nH]c(=O)c2c1nc(SC1CCCCC1)n2Cc1ccccc1", "strain": "H37Rv", "tested at": "12.5 µg/mL", "method": "BACTEC", "measure": "inhibition", "value": "0%"}
{"structure": "CNCCc1cccs1.Cl", "strain": "H37Rv", "measure": "MIC", "value": "1600 µg/mL"}
{"structure": "O=C(O)c1ccc2c(c1)C(=O)CC(c1ccccc1)O2", "strain": "H37Rv", "tested at": "12.5 µg/mL", "measure": "inhibition", "value": "0%"}
{"structure": "C[n+]1cccc(C(=O)NN)c1.Cc1ccc(S(=O)(=O)[O-])cc1", "strain": "H37Rv", "tested at": "12.5 µg/mL", "method": "BACTEC", "measure": "inhibition", "value": "5%"}
{"structure": "CC(=O)Nc1ccc(N(CC(=O)O)CC(=O)O)cc1", "strain": "H37Rv", "measure": "MIC", "value": ">100 µg/mL"}
{"structure": "CN(C)C(=S)S(=O)(=O)CCCCS(=O)(=O)C(=S)N(C)C", "strain": "H37Rv", "method": "BACTEC", "measure": "MIC", "value": "16 µg/mL"}
{"structure": "COc1ccc2c(c1)OC(c1ccccc1)CC2=O", "strain": "H37Rv", "measure": "EC50", "value": ">12.5 µg/mL"}
{"structure": "O=C(O)/C=C\\C(=O)O", "strain": "H37Rv", "measure": "MIC", "value": ">100 µg/mL"}
{"structure": "CO[C@H]1/C=C/O[C@@]2(C)Oc3c(C)c(O)c4c(O)c(c5c(c4c3C2=O)NC2(CCN(CC(C)C)CC2)N=5)=NC(=O)/C(C)=C\\C=C\\[C@H](C)[C@H](O)[C@@H](C)[C@@H](O)[C@@H](C)[C@H](OC(C)=O)[C@@H]1C", "strain": "3113 (rifampin-sensitive)", "measure": "MIC", "value": "0.05 µg/mL"}
{"structure": "CC(=O)c1ccc2oc3cc(N)ccc3c2c1", "strain": "H37Rv", "measure": "MIC", "value": "25 µg/mL"}
{"structure": "COc1cccc(/C=N/NC(=O)c2cc(C)nc3ccc(Br)cc23)c1O", "strain": "H37Rv", "tested at": "12.5 µg/mL", "method": "BACTEC", "measure": "inhibition", "value": "1%"}
{"structure": "CCN(CC)CCOC(=O)Nc1ccccc1.Cl", "strain": "H37Rv", "measure": "MIC", "value": ">100 µg/mL"}
{"structure": "CCOC(=O)Nc1cc(NC(C)/C(=N/O)c2ccccc2)c([N+](=O)[O-])c(N)n1", "strain": "H37Rv", "tested at": "12.5 µg/mL", "measure": "inhibition", "value": "14%"}

A second listing of 4 rows from above:

structure	strain	tested at	method	measure	value
CCN(CC)CCOC(=O)Nc1ccccc1.Cl	H37Rv			MIC	>100 µg/mL
CC(CNC1CCCCCCC1)NCC12CC3CC(CC(C3)C1)C2				MIC	25 µM
O=c1[nH][nH]c(=O)c2c1nc(SC1CCCCC1)n2Cc1ccccc1	H37Rv	12.5 µg/mL	BACTEC	inhibition	0%
CO[C@H]1/C=C/O[C@@]2(C)Oc3c(C)c(O)c4c(O)c(c(/C=N/N5CCN(C/C=C/c6ccccc6)CC5)c(O)c4c3C2=O)NC(=O)/C(C)=C\C=C\[C@H](C)[C@H](O)[C@@H](C)[C@@H](O)[C@@H](C)[C@H](OC(C)=O)[C@@H]1C	2983 (rifampin-sensitive)			MIC	0.05 µg/mL